Compound potency records, mixed from different reports. Data source: NIAID ChemDB in PubChem.

Common to all: growth or infection tests; agent: Plasmodium falciparum; read-out: EC50

Lines come from different laboratories, so protocols vary. Blank or dashed fields: not listed here. ECn: concentration that inhibits the pathogen or its effect by n%.

structure	cell line	method	conditions	mutations	strain or isolate	value
O=C(Nc1cc(C(F)(F)F)ccc1-n1cncn1)C1(c2cccc(C(F)(F)F)c2)CC1	-	-	-	-	TM90C2B	0.004 µM
CC[C@H]1OC(=O)[C@H](C)[C@@H](OC2C[C@@](C)(OC)[C@@H](O)[C@H](C)O2)[C@H](C)[C@@H](OC2O[C@H](C)C[C@H](N(C)C)[C@H]2O)[C@](C)(OC2C[C@@H](O)[C@H](O)[C@H](C)O2)C[C@@H](C)C(=O)[C@H](C)[C@@H](O)[C@]1(C)O	RBC	fluorescence	120 h	-	3D7	10.1 µM
O=C1[C@@H](NCCCNc2ccnc3cc(Cl)ccc23)[C@@H](/C=C/c2ccccc2)N1c1ccc(F)cc1	-	flow cytometry	-	Chloroquine-resistant	W2	0.2042 µM
COc1cc2nc(N3CCCN(C)CC3)nc(NC3CCN(Cc4ccccc4)CC3)c2cc1OC	-	fluorescence	-	-	7G8	0.04 µM
COCCn1cc(-c2ccnc(N)n2)c2cc(Br)ccc21	-	LDH	-	-	D6	>14.43 µM
COc1ccc(/C=C/C(=O)c2ccc(Cl)cc2)c(OC)c1OC	-	SYBR Green / fluorescence	-	-	Dd2	6.8 µM
CCCCCCCCCCCC(=O)NC(CCCC[NH3+])C(=O)NC(CCCC[NH3+])C(=O)NCCCCCCCC(=O)NC(CCCC[NH3+])C(=O)NC(CCCC[NH3+])C(=O)NCCCCCCCC(=O)NC(CCCC[NH3+])C(N)=O	-	hypoxanthine uptake	-	-	NF54	8.9 µM
CCN(CC)CCCC(C)Nc1ccnc2cc(Cl)ccc12	-	SYBR Green / fluorescence	-	KAE678-resistant pfatp4 A184S/P990R	KAE678R-2	0.0119 µM
O=c1cc(CNCCNc2ccnc3cc(Cl)ccc23)n(C2CC2)cc1O	-	radiometric	-	-	3D7	0.23 µM
CCCCCC(=O)CCCCCC(=O)NC(CCCC[NH3+])C(=O)NC(CCCC[NH3+])C(=O)CCCCCC(=O)NCCCCCC(=O)NC(CCCC[NH3+])C(N)=O	-	hypoxanthine uptake	-	-	NF54	>10 µM
Cc1ccc(N2C(=O)[C@@H](NCCCNc3ccnc4cc(Cl)ccc34)[C@H]2/C=C/c2ccccc2)cc1	-	flow cytometry	-	Chloroquine-resistant	W2	0.1641 µM
COc1cc(OC)c(OC)cc1/C=C/C=C/C(=O)c1ccc2ccccc2c1	-	SYBR Green / fluorescence	-	-	Dd2	25 µM
CCOC(=O)C1=C(C(=O)OCC)C2N(Cc3ccccc3C(F)(F)F)c3ccccc3[C@@]23C[C@@H](C(=O)OC)N(S(=O)(=O)c2c(C)noc2C)C3=N1	-	SYBR Green / fluorescence	-	-	HB3 Dd2	0.6 µM
O=C(CNc1ccnc2cc(Cl)ccc12)N[C@H]1C(=O)N(C2CCCCC2)[C@H]1/C=C/c1ccccc1	-	flow cytometry	-	Chloroquine-resistant	W2	0.5703 µM
COc1ccc([C@]23Cc4cc(C#N)ccc4[C@@H](O2)c2c(cc(-c4ccccc4)oc2=O)O3)cc1	-	SYBR Green / fluorescence	-	-	HB3 Dd2	2.9 µM
N#Cc1nc2c(-c3nc4ccccc4[nH]3)c(N)n(CCCC(F)(F)F)c2nc1C#N	Erythrocytes	hypoxanthine uptake / radiometric	-	-	NF54	0.74 µM
COC(=O)C1=C(C(=O)OC)C2N(Cc3ccccc3)c3ccccc3[C@@]23C[C@@H](C(=O)OC)N(S(=O)(=O)c2ccc(C(F)(F)F)cc2)C3=N1	-	SYBR Green / fluorescence	-	-	HB3 Dd2	1.3 µM
CCOc1ccccc1C(=O)n1cc(-c2ccnc(N)n2)c2ccccc21	-	LDH	-	-	W2	>14.49 µM
O=C(CCCNc1ccnc2cc(Cl)ccc12)N[C@H]1C(=O)N(C2CCCCC2)[C@H]1/C=C/c1ccccc1	-	flow cytometry	-	Chloroquine-resistant	W2	0.5567 µM
CCCCCCCCCCCC(=O)NC(CCCC[NH3+])C(=O)NCCCCCCCCCCCC(=O)NC(CCCC[NH3+])C(=O)NCCCCCCCCCCCC(=O)NC(CCCC[NH3+])C(N)=O	-	hypoxanthine uptake	-	-	FCR3	0.9 µM
O=C(/C=C/C=C/c1ccc2c(c1)OCO2)c1ccc(F)cc1	-	SYBR Green / fluorescence	-	-	3D7	50 µM
COC(=O)C1=C(C)N(Cc2ccc(C(F)(F)F)cc2)C(=NCc2cccc(C(F)(F)F)c2)NC1c1cccc(Cl)c1	-	SYBR Green / fluorescence	-	-	7G8	5.5 µM
C[C@H]1Cc2c([nH]c3cc(Cl)c(F)cc23)[C@@]2(N1)C(=O)Nc1ccc(Cl)cc12	-	SYBR Green / fluorescence	-	KAE678-resistant (A184S/P990R)	KAE678R-2	0.00366 µM
CCCCCCCCCCCC(=O)NC(CCCC[NH3+])C(=O)NCCCCCCCC(=O)NC(CCCC[NH3+])C(N)=O	-	hypoxanthine uptake	-	-	FCR3	0.4 µM
COc1ccc(CCn2c(N)c(-c3nc4ccccc4[nH]3)c3nc(C#N)c(C#N)nc32)cc1	Erythrocytes	hypoxanthine uptake / radiometric	-	-	NF54	0.16 µM
CCN(CC)CCCC(C)Nc1ccnc2cc(Cl)ccc12	-	broth dilution	-	-	FCR3	0.18 µM
N#Cc1nc2c(-c3nc4ccccc4[nH]3)c(N)n(Cc3ccc(O)cc3)c2nc1C#N	Erythrocytes	hypoxanthine uptake / radiometric	-	-	NF54	0.29 µM
COc1cc2c(cc1OC)[C@H]1O[C@](CCCCN3C(=O)c4ccccc4C3=O)(C2)OC2=C1C(=O)CC(C)(C)C2	-	SYBR Green / fluorescence	-	-	7G8 GB4	2.5 µM
Cc1noc(C)c1Cn1cc(-c2ccnc(N)n2)c2ccccc21	-	LDH	-	-	W2	>14.49 µM
O=C(CCNc1ccnc2cc(Cl)ccc12)N[C@H]1C(=O)N(c2ccc(F)cc2)[C@H]1/C=C/c1ccccc1	-	flow cytometry	-	Chloroquine-resistant	W2	0.1482 µM
O=C(/C=C/C=C/c1ccc2c(c1)OCO2)c1ccc(Br)cc1	-	SYBR Green / fluorescence	-	-	Dd2	74 µM
O=c1cc(CNCCCCNc2ccnc3cc(Cl)ccc23)n(C2CC2)cc1O	-	radiometric	-	-	3D7	0.17 µM
O=C1[C@@H](NCCCNc2ccnc3cc(Cl)ccc23)[C@@H](/C=C/c2ccccc2)N1C1CCCCC1	-	flow cytometry	-	Chloroquine-resistant	W2	0.1431 µM
CCCCCCCCCCCC(=O)NC(CCCC[NH3+])C(=O)CCCCCC(=O)NCCCCCC(=O)NC(CCCC[NH3+])C(N)=O	-	hypoxanthine uptake	-	-	NF54	1 µM
ClCCl	Human dermal fibroblasts	MTT	-	-	D10	47 µg/mL
O=C(Nc1cc(C(F)(F)F)ccc1-n1cncn1)C1(c2ccccc2)CC1	-	-	-	-	Dd2	0.102 µM
CCCCCC(=O)NCCCCCC(=O)NC(CCCC[NH3+])C(=O)CCCCCC(=O)NCCCCCC(=O)NC(CCCC[NH3+])C(N)=O	-	hypoxanthine uptake	-	-	NF54	>10 µM
COc1ccc(C(=O)/C=C/c2cccc3ccccc23)cc1	-	SYBR Green / fluorescence	-	-	Dd2	18.2 µM
Clc1ccc2c(NCCCCN3CCN(C(c4ccccc4)c4ccccc4)CC3)ccnc2c1	-	SYBR Green / fluorescence	-	-	Dd2	0.0013 µM
Cn1cc(O)c(=O)cc1CNCCCCCCNc1ccnc2cc(Cl)ccc12	-	radiometric	-	-	K1	0.32 µM
COC(=O)C1=C(C)N(Cc2cccc(C(F)(F)F)c2)C(=NCc2cccc(C(F)(F)F)c2)NC1c1cccc(Cl)c1	-	SYBR Green / fluorescence	-	-	7G8	2.8 µM
C[C@H]1[C@@H](OC(=O)CCC(=O)O)O[C@@H]2O[C@@]3(C)CC[C@H]4[C@H](C)CC[C@@H]1[C@@]24OO3	Red blood cells	SYBR Green	-	-	Dd2	0.002 µg/mL
CO/C(=N/NC(=O)OC(C)(C)C)C(C)(O)c1ccc(Cl)c(Cl)c1	-	hypoxanthine uptake / radiometric	-	-	3D7	2.5 µM
N#Cc1nc2c(-c3nc4ccccc4[nH]3)c(N)n(CC(O)c3ccccc3)c2nc1C#N	Erythrocytes	hypoxanthine uptake / radiometric	-	-	NF54	0.44 µM
CCCO/C(=N/NC(=O)OCC)C(C)(O)c1ccc2ccccc2c1	-	hypoxanthine uptake / radiometric	-	-	3D7	0.6 µM
NCCCCCCCCCCCC(=O)NC(CCCC[NH3+])C(=O)NCCCCCCCCCCCC(=O)NC(CCCC[NH3+])C(N)=O	-	hypoxanthine uptake	-	-	FCR3	21 µM
CCOC(=O)N/N=C(/OCC)C(C)(O)c1ccc(F)c(Br)c1	-	hypoxanthine uptake / radiometric	-	-	3D7	1.5 µM
CC[C@H]1OC(=O)[C@H](C)[C@@H](OC2C[C@@](C)(OC)[C@@H](O)[C@H](C)O2)[C@H](C)[C@@H](OC2O[C@H](C)C[C@H](N(C)C)[C@H]2O)[C@](C)(OC2C[C@@H](N(C)C)[C@@H](O)[C@H](C)O2)C[C@@H](C)C(=O)[C@H](C)[C@@H](O)[C@]1(C)O	RBC	fluorescence	120 h	-	3D7	10.1 µM
O=c1cc(CNCCCCCCNc2ccnc3cc(Cl)ccc23)n(C2CC2)cc1Oc1ccccc1	-	radiometric	-	-	3D7	0.004 µM
O=C1[C@@H](NCCCNc2ccnc3cc(Cl)ccc23)[C@@H](/C=C/c2ccccc2)N1c1ccccc1	-	flow cytometry	-	Chloroquine-resistant	W2	0.1881 µM
N#Cc1nc2c(-c3nc4ccccc4[nH]3)c(N)n(CCc3cccc(Cl)c3)c2nc1C#N	Erythrocytes	hypoxanthine uptake / radiometric	-	-	NF54	0.19 µM
Cn1nc(C(F)(F)F)c(-c2ccc(Br)cc2)c1NC(=O)Nc1ccc(F)cc1F	-	SYBR Green / fluorescence	-	KAE678-resistant (I203M/I263V)	KAE678R-3	1.6 µM
CC(C)CC(=O)O[C@@H]1[C@@H](OC(=O)CC(C)C)[C@H](O[C@]2(CO)O[C@H](CO)[C@@H](OC(=O)CC(C)C)[C@@H]2OC(=O)CC(C)C)O[C@H](CO)[C@H]1OC(=O)CC(C)C	Red blood cells	SYBR Green	-	-	Dd2	1.495 µg/mL
COc1ccc(/C=C/C=C/C(=O)c2ccc(Cl)cc2)cc1OC	-	SYBR Green / fluorescence	-	-	Dd2	25 µM
NCCCCCCCC(=O)NC(CCCC[NH3+])C(=O)NCCCCCCCC(=O)NC(CCCC[NH3+])C(N)=O	-	hypoxanthine uptake	-	-	FCR3	120 µM
COc1ccc(Cn2c(N)c(-c3nc4ccccc4[nH]3)c3nc(C#N)c(C#N)nc32)cc1OC	Erythrocytes	hypoxanthine uptake / radiometric	-	-	NF54	1.98 µM
c1ccc(CNC23OC4C5C2C2C5C56CC25C3C46)cc1	-	LDH / absorbance	-	-	D10	>2 µM
CC(C)CN1C(=O)[C@@H](NCCNc2ccnc3cc(Cl)ccc23)[C@H]1/C=C/c1ccccc1	-	flow cytometry	-	Chloroquine-resistant	W2	0.4246 µM
CN(C)CCn1c(N)c(-c2nc3ccccc3[nH]2)c2nc(C#N)c(C#N)nc21	Erythrocytes	hypoxanthine uptake / radiometric	-	-	NF54	0.14 µM
O=C1[C@@H](NCCNc2ccnc3cc(Cl)ccc23)[C@@H](/C=C/c2ccccc2)N1c1ccccc1	-	flow cytometry	-	Chloroquine-resistant	W2	0.1353 µM
CCO/C(=N/NC(=O)NC)C(C)(O)c1ccc(Cl)c(Cl)c1	-	hypoxanthine uptake / radiometric	-	-	3D7	0.85 µM
CCCCCC	Human dermal fibroblasts	MTT	-	CQ-resistant	W2	30 µg/mL

A second listing of 8 rows from above:

structure,cell line,method,conditions,mutations,strain or isolate,value
Cn1nc(C(F)(F)F)c(-c2ccc(Br)cc2)c1NC(=O)Nc1ccc(F)cc1F,-,SYBR Green / fluorescence,-,KAE678-resistant (I203M/I263V),KAE678R-3,1.6 µM
COC(=O)C1=C(C)N(Cc2cccc(C(F)(F)F)c2)C(=NCc2cccc(C(F)(F)F)c2)NC1c1cccc(Cl)c1,-,SYBR Green / fluorescence,-,-,7G8,2.8 µM
COC(=O)C1=C(C(=O)OC)C2N(Cc3ccccc3)c3ccccc3[C@@]23C[C@@H](C(=O)OC)N(S(=O)(=O)c2ccc(C(F)(F)F)cc2)C3=N1,-,SYBR Green / fluorescence,-,-,HB3 Dd2,1.3 µM
O=C(CNc1ccnc2cc(Cl)ccc12)N[C@H]1C(=O)N(C2CCCCC2)[C@H]1/C=C/c1ccccc1,-,flow cytometry,-,Chloroquine-resistant,W2,0.5703 µM
O=C(CCCNc1ccnc2cc(Cl)ccc12)N[C@H]1C(=O)N(C2CCCCC2)[C@H]1/C=C/c1ccccc1,-,flow cytometry,-,Chloroquine-resistant,W2,0.5567 µM
Cc1ccc(N2C(=O)[C@@H](NCCCNc3ccnc4cc(Cl)ccc34)[C@H]2/C=C/c2ccccc2)cc1,-,flow cytometry,-,Chloroquine-resistant,W2,0.1641 µM
N#Cc1nc2c(-c3nc4ccccc4[nH]3)c(N)n(CCc3cccc(Cl)c3)c2nc1C#N,Erythrocytes,hypoxanthine uptake / radiometric,-,-,NF54,0.19 µM
O=C(Nc1cc(C(F)(F)F)ccc1-n1cncn1)C1(c2ccccc2)CC1,-,-,-,-,Dd2,0.102 µM